Among the data in PubChem BioAssay (NCATS) are outcome and activity change, negative = cytotoxicity values, retold here.

This is a selection; strong and weak results do not stand in their true shares. Records with an inconclusive call do not appear. Active and inactive are the calls of the source. Calls come from the whole dose curve.
% is set by controls: 0 for no effect and ±100 for the full control effect.

A short description of this test: Primary qHTS for Huh7 cytotoxicity: counterscreen for inhibitors of MERS-S pseudotyped particle cell entry (AID 1479147). To be noted: cell viability read-out; activity change, negative = cytotoxicity: at 57.1 µM (top of the series).
Take `C/C1=C2N=C(/C=C3N=C(/C(C)=C4\[N-][C@@](C)([C@@H]5N=C1[C@](C)(CCC(=O)NC[C@@H](C)OP(=O)([O-])O[C@H]1[C@@H](O)[C@@H](n6cnc7cc(C)c(C)cc76)O[C@@H]1CO)[C@H]5CC(N)=O)[C@@](C)(CC(N)=O)[C@@H]4CCC(N)=O)[C@@](C)(CC(N)=O)[C@@H]\3CCC(N)=O)C(C)(C)[C@@H]/2CCC(N)=O.[C-]#N.[Co+3]`: the outcome was inactive.

As to `CC(C)OP(=O)(F)OC(C)C`, the result was inactive.

For the compound `CCOP(=O)(CC)Oc1ccc([N+](=O)[O-])cc1` (centres undefined), the activity change, negative = cytotoxicity was inactive: 2.62%.

In the case of `O=[N+]([O-])c1cccc([N+](=O)[O-])c1`, the activity change, negative = cytotoxicity is inactive: 1.73%.
